Measured values from several laboratories, pooled; numbers as filed in NIAID ChemDB.

Shared fields: tests in culture; agent: Mycobacterium avium; measure: MIC

Conditions beyond the fields shown may differ between rows.

FC(F)(F)C(F)(F)C(F)(F)c1nc2cc(Cl)c(Cl)cc2[nH]1 ; strain: MY330/88 ; value: 32 µM
CCCCCCCCCCCCOc1ccc(NC(=O)OCCC[NH+]2CCCCC2)cc1 ; strain: MY330/88 ; value: 8 µM
O=Cc1coc2ccc(F)cc2c1=O ; strain: MY330/88 ; value: 500 µM
CC[C@H]1OC(=O)[C@H](C)C(=O)[C@H](C)[C@@H](O[C@@H]2O[C@H](C)C[C@H](N(C)C)[C@H]2O)[C@](C)(OC)C[C@@H](C)C(=O)[C@H](C)[C@H]2N(NCCCc3ccnc4ccccc34)C(=O)O[C@]12C ; strain: Isolate 1110 ; value: 2.5 µg/mL
CCCOc1cccc(NC(=O)OCCN2CCCCC2)c1 ; strain: MY330/88 ; value: 250 µM
O=c1c(/C=N/c2nc3c(Cl)cccc3s2)coc2ccc(Cl)cc12 ; strain: MY 80/72 ; value: >100 µg/mL
CCCCCCCCCCCCOc1cccc(NC(=O)OCCC[NH+]2CCCCC2)c1 ; strain: MY330/88 ; value: 32 µM
CCCCCCCCNC[C@H]1O[C@H](O[C@H]2O[C@H](CNCCCCCCCC)[C@@H](O)[C@H](O)[C@H]2O)[C@H](O)[C@@H](O)[C@@H]1O ; strain: NJ168 ; value: 8 µg/mL
Oc1ccc(Cl)cc1C(=S)Nc1ccc(F)cc1 ; strain: MY330/88 ; value: 31 µM
CCCCCOc1cccc(NC(=O)OCCN2CCCCCC2)c1 ; strain: MY330/88 ; value: 32 µM
O=c1oc2ccc(F)cc2c(=O)n1-c1cccc(Cl)c1 ; strain: CNCTC MY330/88 ; value: 16 µM
FC(F)(F)C(F)(F)C(F)(F)C(F)(F)c1nc2c(Br)c(Br)c(Br)c(Br)c2[nH]1 ; strain: MY330/88 ; value: 32 µM
Cc1ccc2occ(/C=N/NC(=O)c3ccncc3)c(=O)c2c1 ; strain: MY 80/72 ; value: >100 µg/mL
CCCCCCCCCCCC(N)=NC[C@H]1O[C@H](O[C@H]2O[C@H](CN=C(N)CCCCCCCCCCC)[C@@H](O)[C@H](O)[C@H]2O)[C@H](O)[C@@H](O)[C@@H]1O ; strain: NJ168 ; value: 16 µg/mL
N#CCC(=O)N/N=C/c1coc2ccc([N+](=O)[O-])cc2c1=O ; strain: MY 80/72 ; value: >50 µg/mL
O=[N+]([O-])c1cc(Sc2nc3ccc(Br)cc3[nH]2)cc([N+](=O)[O-])c1 ; strain: MY330/88 ; value: 32 µM
CCOC1Oc2ccc(Cl)cc2C(=O)/C1=C/Nc1nc2ccccc2s1 ; strain: MY 80/72 ; value: >100 µg/mL
O=Cc1coc2ccc(Br)cc2c1=O ; strain: MY330/88 ; value: >1000 µM
CCCCCOc1ccccc1NC(=O)OCC[NH+]1CCCC1 ; strain: MY330/88 ; value: 125 µM
COc1ccc(NC(=O)OCCC[NH+]2CCCCC2)cc1 ; strain: MY330/88 ; value: 1000 µM
Cc1ccc2c(=O)n(-c3ccc(Cl)cc3)c(=O)oc2c1 ; strain: CNCTC MY330/88 ; value: 8 µM
CCCCCCCCCCOc1cccc(NC(=O)OCC[NH+]2CCCC2)c1 ; strain: MY330/88 ; value: 16 µM
CCCCCCNC[C@H]1O[C@H](O[C@H]2O[C@H](CNCCCCCC)[C@@H](O)[C@H](O)[C@H]2O)[C@H](O)[C@@H](O)[C@@H]1O ; strain: NJ3404 ; value: >128 µg/mL
O=c1oc2cc(Cl)ccc2c(=O)n1-c1ccc(Cl)cc1 ; strain: CNCTC MY330/88 ; value: 16 µM
CCCCCCCCCCCCN(CCCCCCCCCCCC)C[C@H]1O[C@H](O[C@H]2O[C@H](CN(CCCCCCCCCCCC)CCCCCCCCCCCC)[C@@H](O)[C@H](O)[C@H]2O)[C@H](O)[C@@H](O)[C@@H]1O ; strain: NJ211 ; value: >128 µg/mL
CC(C)N=C(N)/N=C(\N)NOCCCOc1cc(Cl)c(Cl)cc1Cl ; strain: 3404-4 ; value: 15.6 µg/mL
Cc1ccc2oc(=O)n(-c3cccc(Cl)c3)c(=O)c2c1 ; strain: CNCTC MY330/88 ; value: 16 µM
CCCCC(CC)CN(CC(CC)CCCC)C[C@H]1O[C@H](O[C@H]2O[C@H](CN(CC(CC)CCCC)CC(CC)CCCC)[C@@H](O)[C@H](O)[C@H]2O)[C@H](O)[C@@H](O)[C@@H]1O ; strain: NJ1854 ; value: >128 µg/mL
COc1ccc2oc(=O)n(-c3ccccc3)c(=O)c2c1 ; strain: CNCTC MY330/88 ; value: 125 µM
CCCCCCCCCCCCCCCCS(=O)(=O)NC[C@H]1O[C@H](O[C@H]2O[C@H](CNS(=O)(=O)CCCCCCCCCCCCCCCC)[C@@H](O)[C@H](O)[C@H]2O)[C@H](O)[C@@H](O)[C@@H]1O ; strain: NJ3404 ; value: >64 µg/mL
Oc1ccc(Cl)cc1C(=S)Nc1ccc(Cl)c(Cl)c1 ; strain: MY330/88 ; value: 62.5 µM
O=Cc1coc2ccccc2c1=O ; strain: MY330/88 ; value: 1000 µM
Cc1ccc2occ(/C=N/NC(=O)c3ccccc3O)c(=O)c2c1 ; strain: MY 80/72 ; value: >100 µg/mL
COc1ccc2oc(=O)n(-c3ccc(F)cc3)c(=O)c2c1 ; strain: CNCTC MY330/88 ; value: 62.5 µM
CCCCCCCCCCCC(N)=NC[C@H]1O[C@H](O[C@H]2O[C@H](CN)[C@@H](O)[C@H](O)[C@H]2O)[C@H](O)[C@@H](O)[C@@H]1O ; strain: NJ168 ; value: >128 µg/mL
Oc1ccc(Cl)cc1C(=S)Nc1ccccc1 ; strain: MY330/88 ; value: 16 µM
COc1ccccc1NC(=O)OCCC[NH+]1CCCCC1 ; strain: MY330/88 ; value: 500 µM
FC(F)(F)C(F)(F)C(F)(F)c1nc2c(Br)cc(Br)cc2[nH]1 ; strain: MY330/88 ; value: 32 µM
CCCCCCCCOc1cccc(NC(=O)OCCC[NH+]2CCCCC2)c1 ; strain: MY330/88 ; value: 16 µM
CCCCc1ccc(NC(=S)c2cc(Cl)ccc2O)cc1 ; strain: MY330/88 ; value: 16 µM

The last 6 rows once more:

structure,strain,value
CCCCCCCCCCCC(N)=NC[C@H]1O[C@H](O[C@H]2O[C@H](CN)[C@@H](O)[C@H](O)[C@H]2O)[C@H](O)[C@@H](O)[C@@H]1O,NJ168,>128 µg/mL
Oc1ccc(Cl)cc1C(=S)Nc1ccccc1,MY330/88,16 µM
COc1ccccc1NC(=O)OCCC[NH+]1CCCCC1,MY330/88,500 µM
FC(F)(F)C(F)(F)C(F)(F)c1nc2c(Br)cc(Br)cc2[nH]1,MY330/88,32 µM
CCCCCCCCOc1cccc(NC(=O)OCCC[NH+]2CCCCC2)c1,MY330/88,16 µM
CCCCc1ccc(NC(=S)c2cc(Cl)ccc2O)cc1,MY330/88,16 µM